Test results taken from patent publication US4065570A (priority 1975, dated 1977).

Test system: Cynomolgus monkeys
Conditions: Substance only (no virus)

Substance: Acetylated 5-(3',4',-Dimethoxybenzal) hydantoin [Example 14]
- Presence of poliovirus in rectal, % (4th Day): 0%
- Presence of poliovirus in rectal, No. (4th Day): 0/5
- Presence of poliovirus in rectal, % (8th Day): 0%
- Presence of poliovirus in rectal, No. (8th Day): 0/5
- Presence of poliovirus in rectal, % (11th Day): 0%
- Presence of poliovirus in rectal, No. (11th Day): 0/5
- Presence of poliovirus in rectal, % (15th Day): 0%
- Presence of poliovirus in rectal, No. (15th Day): 0/5

Where two headings read alike, the source gives them in different places.
